Test results reported in PubChem BioAssay AID540267 (National Center for Advancing Translational Sciences (NCATS), 2011).
This is a selection; strong and weak results do not stand in their true shares. Some structures show a salt or complex split into parts, the way the source records it. The source made the active and inactive calls. Cut-off read from the data, not from the text of the source: active = activity change below about -80%; inconclusive = between about -30% and that limit; inactive = weaker than that.
% is set by controls: 0 for no effect and ±100 for the full control effect.

Assay: Small Molecules that selectively kill Giardia lamblia: qHTS;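 note: parasites exposed to compound for two days anaerobically before the ATP read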
Settings: Giardia lamblia trophozoite viability; at 7.66 µM; stronger effect = lower value
Description: Giardia lamblia is a human pathogen afflicting impoverished nations, and the most common cause of outbreaks of diarrhea in the United States. Giardia has been classified by the CDC as a category B bioterrorism organism. The favored anti giardiasis drugs in the US are metronidazole or tinidazole, compounds that have undesirable side effects. Moreover, increasing resistance to drug regimes and recurrence are a concern. It is thus clear that alternative drug treatments are needed.
In a collaboration between the University of Maryland, College Park and the NIH Chemical Genomics Center, a bioluminescence Giardia viability assay based on the trophozoites' ATP content was developed. This assay is suitable for high throughput screening, and miniaturized the assay for compound screening in 1536-well plates. The goal of the project is to screen the Molecular Libraries Small Molecule Repository (MLSMR) for compounds that selectively kill Giardia trophozoites.
NIH Chemical Genomics Center [NCGC]
NIH Molecular Libraries Probe Centers Network [MLPCN]
Assay Submitter (PI): Osnat Herzberg, University of Maryland, College Park, MD.
1. Dispense 2 ul/well media
2. Dispense 23 nl/well compounds
3. Dispense 4 ul/well Giardia trophozoites at a concentration of 100 cells/well
4. Incubate 48 hrs at 37 deg C anaerobically
5. Dispense 4 ul/well ATPLite 1-Step Luminescence assay kit
6. Incubate 15-30 min at room temperature
7. Read luminescence signal on ViewLux plate reader
For O=C(NCC1(N2CCCCC2)CCCCC1)c1cccc(C(F)(F)F)c1, the activity change was inactive: -18.4%.
In the case of COc1cc(C(=O)NCC2(N3CCCCC3)CCCCC2)ccc1OC(F)F, the activity change is reported as inactive: -6.83%.
With O=C(NCC1(N2CCOCC2)CCCCC1)c1cc(=O)[nH]c2ccccc12 the activity change was inactive: 7.51%.
In the case of CN1CCN(CCOC(=O)C(O)(c2ccccc2)c2ccccc2)CC1, the activity change is reported as inactive: -11%.
With COc1ccc(NC2CCN(C(=O)OC(C)(C)C)CC2)cc1 the activity change was inactive: 12.6%.
For CC(C)c1ccc(C(=O)NCC2(N3CCOCC3)CCCCC2)cc1, the activity change was inactive: 9.91%.
In the case of O=C(NCC1(N2CCCCC2)CCCCC1)c1ccc(OC(F)F)cc1, the activity change is reported as inactive: 5.8%.
With CCN1CCC(Nc2ccc(Cl)cc2)CC1 the activity change was inactive: 6.91%.
For N#CC1(Nc2ccccc2)CCN(CCc2ccccc2)CC1, the activity change was inactive: 1.65%.
With O=C(NCC1(N2CCCCC2)CCCCC1)c1cccc([N+](=O)[O-])c1 the activity change was inactive: -22.1%.
In the case of CSc1ccc(C(=O)NCC2(N3CCOCC3)CCCCC2)cc1, the activity change is reported as inactive: -29.1%.
For O=C(OC1CN2CCC1CC2)c1ccc([N+](=O)[O-])cc1 (stereo not given), the activity change was inactive: 1.12%.
In the case of CN1CCC(Nc2cccc(F)c2)CC1, the activity change is reported as inactive: 21.9%.
In the case of O=C(NCC1(N2CCCCC2)CCCCC1)c1cncc(Br)c1, the activity change is reported as inactive: 6.28%.
In the case of COc1ccc2c(c1O)-c1c(O)c(OC)cc3c1[C@H](C2)[N+](C)(C)CC3.O=[N+]([O-])c1cc([N+](=O)[O-])c([O-])c([N+](=O)[O-])c1[O-], the activity change is reported as inactive: -19.3%.
In the case of CCCOc1ccc(C(=O)NCC2(N(C)C)CCCCC2)cc1OC, the activity change is reported as inactive: 5.69%.
In the case of CC(C)c1ccc(NC2CCN(C(=O)OC(C)(C)C)CC2)cc1, the activity change is reported as inactive: -9.47%.
For COc1ccc(CN(CCCl)CCCl)cc1Cl, the activity change was inactive: -2.76%.
For O=[N+]([O-])c1cc([N+](=O)[O-])c(OC2CCCCC2O)c([N+](=O)[O-])c1 (stereo not given), the activity change was inactive: 7.23%.
In the case of CN(C)c1cccc(C(=O)NCC2(N3CCCCC3)CCCCC2)c1, the activity change is reported as inactive: -11.3%.
With COc1cc(OC)c(C(=O)NCC2(N(C)C)CCCCC2)cc1OC the activity change was inactive: -12%.
For O=C(NCC1(N2CCOCC2)CCCCC1)c1cc(F)c(F)cc1Cl, the activity change was inactive: 20.6%.
With O=C(NCC1(N2CCCCC2)CCCCC1)c1ccc(Cl)nc1 the activity change was inactive: 19.8%.
For Cc1cc(C)cc(N(C(=O)c2ccccc2)C2CCN(C(=O)OC(C)(C)C)CC2)c1, the activity change was inactive: -12.1%.
In the case of O=C(NCC1(N2CCOCC2)CCCCC1)c1cc2ccccc2o1, the activity change is reported as inactive: 11.4%.
With O=C(NCC1(N2CCCCC2)CCCCC1)c1ccc(Cl)s1 the activity change was inactive: 14%.
For N#CC1(Nc2ccccc2)CCN(Cc2ccccc2)CC1, the activity change was inactive: 16.5%.
With O=C(OC1CN2CCC1CC2)C1c2ccccc2Oc2ccccc21 (stereo not given) the activity change was inactive: -3.27%.
In the case of COc1ccc(Cl)cc1C(=O)NCC1(N2CCOCC2)CCCCC1, the activity change is reported as inactive: -0.696%.
With O=C1C(O)=C([N+](=O)[O-])C(=O)C(O)=C1[N+](=O)[O-] the activity change was inactive: 11.4%.
For COc1ccc(C(=O)NCC2(N3CCCCC3)CCCCC2)cc1, the activity change was inactive: 10.3%.
For COc1ccc(C(=O)NCC2(N3CCCCC3)CCCCC2)c(OC)c1OC, the activity change was inactive: 4.96%.
In the case of CC(C)(C)OC(=O)N1CCC(N(C(=O)c2ccccc2)c2ccc(F)cc2)CC1, the activity change is reported as inactive: 40.1%.
For O=C(NCC1(N2CCCCC2)CCCCC1)c1ccc(=O)[nH]c1, the activity change was inactive: -12.4%.
In the case of O=C(NCC1(N2CCCCC2)CCCCC1)c1cccs1, the activity change is reported as inactive: 0.609%.
With CSc1ccccc1C(=O)NCC1(N2CCCCC2)CCCCC1 the activity change was inactive: -3%.
For Cc1cccc(NC2(C#N)CCN(Cc3ccccc3)CC2)c1, the activity change was inactive: -10.2%.
With CCOC(=O)N1CCC(Nc2cccc(C)c2)CC1 the activity change was inactive: -17.6%.
For COc1cc(C(=O)NCC2(N(C)C)CCCCC2)ccc1OC(F)F, the activity change was inactive: 14.4%.
In the case of O=C1CCN(Cc2ccccc2)CC1, the activity change is reported as inactive: -3.41%.
For CCOc1ccc(C)cc1CN(CCCl)CCCl, the activity change was inactive: -3.99%.
In the case of O=P1(N(CCCl)CCCl)SCCCS1, the activity change is reported as inactive: -14.9%.
For CCCCOc1ccc(C(=O)NCC2(N3CCOCC3)CCCCC2)cc1, the activity change was inactive: 0.689%.
For O=C(NCC1(N2CCCCC2)CCCCC1)c1ccc(F)cc1, the activity change was inactive: 14.7%.
For COc1ccc(NC2CCN(CCc3ccccc3)CC2)c(OC)c1, the activity change was inactive: -3.3%.
With CCOC(=O)N1CCC(Nc2ccc(F)cc2)CC1 the activity change was inactive: -3.96%.
In the case of Cc1ccccc1NC1(C#N)CCN(Cc2ccccc2)CC1, the activity change is reported as inactive: -17.3%.
For CCN1CCC(Nc2cccc(F)c2)CC1, the activity change was inactive: 14.6%.
In the case of O=C(NCC1(N2CCCCC2)CCCCC1)c1ccco1, the activity change is reported as inactive: 3.73%.
For CN(C)c1ccc(C(=O)NCC2(N3CCCCC3)CCCCC2)cc1, the activity change was inactive: 4.22%.
With Cn1c(=O)[nH]cc(N(CCCl)CCCl)c1=O the activity change was inactive: -14.7%.
In the case of CC(=O)N(c1ccccc1)C1CCNCC1, the activity change is reported as inactive: 57.5%.
With COc1cc(OC)cc(C(=O)NCC2(N3CCCCC3)CCCCC2)c1 the activity change was inactive: -10.3%.
In the case of Cc1ccc(C(=O)NCC2(N3CCCCC3)CCCCC2)o1, the activity change is reported as inactive: 1.8%.
For Fc1ccccc1NC1CCN(Cc2ccccc2)CC1, the activity change was inactive: 3.01%.
With Cc1ccc(NC2(C#N)CCN(Cc3ccccc3)CC2)cc1 the activity change was inactive: 2.34%.
With COc1cc(OC)cc(C(=O)NCC2(N3CCOCC3)CCCCC2)c1 the activity change was inactive: 14.3%.
In the case of COc1cccc(C(=O)N(c2cc(C)cc(C)c2)C2CCN(C(=O)OC(C)(C)C)CC2)c1, the activity change is reported as inactive: 11.9%.
For CCC(CO)(C(=O)OC1CN2CCC1CC2)c1ccccc1 (stereo not given), the activity change was inactive: 11.9%.
For CN1CCC(Nc2ccc(Cl)cc2)CC1, the activity change was inactive: -3.72%.
In the case of CCOc1ncccc1C(=O)NCC1(N2CCOCC2)CCCCC1, the activity change is reported as inactive: -2.52%.
For CN1CCC(Nc2ccc(F)c(Cl)c2)CC1, the activity change was inactive: 0.117%.
For CC(C)(C)OC(=O)N1CCC(Nc2ccccc2)CC1, the activity change was inactive: 1.88%.
With O=C(O)C1(Nc2ccccc2)CCN(Cc2ccccc2)CC1 the activity change was inactive: -17.7%.
For CCCOc1ccc(C(=O)NCC2(N(C)C)CCCCC2)cc1, the activity change was inactive: -10.2%.
With CCOC(=O)N1CCC(Nc2ccc(C)cc2)CC1 the activity change was inactive: 6.01%.
In the case of N/C(=N\O)c1c(N)no[n+]1[O-], the activity change is reported as inactive: 11.7%.
With CCc1cc(C(=O)NCC2(N3CCCCC3)CCCCC2)sc1C the activity change was inactive: 19.3%.
For O=C(OC1CN2CCC1CC2)C1c2ccccc2C=Cc2ccccc21 (stereo not given), the activity change was inactive: -8.24%.
For O=C(O)c1cccc(Nc2c([N+](=O)[O-])cc([N+](=O)[O-])cc2[N+](=O)[O-])c1, the activity change was inactive: -13.2%.
For COc1cc(C(=O)NCC2(N3CCOCC3)CCCCC2)cc(OC)c1C, the activity change was inactive: -6.85%.
With O=C(NCC1(N2CCOCC2)CCCCC1)c1cc(Br)ccc1Cl the activity change was inactive: 0.962%.
For COc1ccc(C(=O)NCC2(N3CCOCC3)CCCCC2)cc1OC, the activity change was inactive: 28.7%.
For CN(C)C1(CNC(=O)c2cccc(C#N)c2)CCCCC1, the activity change was inactive: 7.11%.
In the case of c1ccc(CN2CCC(Nc3ccccc3)CC2)cc1, the activity change is reported as inactive: 29.4%.
In the case of CCCN1CCC(Nc2cc(OC)cc(OC)c2)CC1, the activity change is reported as inactive: -0.571%.
For Cc1cc(N(CCCl)CCCl)ccc1C=O, the activity change was inactive: 5.23%.
For N#Cc1ccc(C(=O)NCC2(N3CCCCC3)CCCCC2)cc1, the activity change was inactive: -2.16%.
For CC(C)(C)OC(=O)N1CCC(N(C(=O)c2ccccc2)c2ccc(Cl)cc2)CC1, the activity change was inactive: -15.6%.
With CCOC(=O)C(CC)C1=NC(C)(C)Cc2ccccc21.O=[N+]([O-])c1cc([N+](=O)[O-])c(O)c([N+](=O)[O-])c1 (stereo not given) the activity change was inactive: -16.2%.
